The target in this test is YopH (Yersinia pseudotuberculosis serotype I, UniProt P08538). To be noted: read-out: YopH IC50.

Chains of the proteins cited; added tags and fusions are not shown. Lines headed by an entry give the natural chain unless they say otherwise; changes in a name come on top.
UniProt P08538: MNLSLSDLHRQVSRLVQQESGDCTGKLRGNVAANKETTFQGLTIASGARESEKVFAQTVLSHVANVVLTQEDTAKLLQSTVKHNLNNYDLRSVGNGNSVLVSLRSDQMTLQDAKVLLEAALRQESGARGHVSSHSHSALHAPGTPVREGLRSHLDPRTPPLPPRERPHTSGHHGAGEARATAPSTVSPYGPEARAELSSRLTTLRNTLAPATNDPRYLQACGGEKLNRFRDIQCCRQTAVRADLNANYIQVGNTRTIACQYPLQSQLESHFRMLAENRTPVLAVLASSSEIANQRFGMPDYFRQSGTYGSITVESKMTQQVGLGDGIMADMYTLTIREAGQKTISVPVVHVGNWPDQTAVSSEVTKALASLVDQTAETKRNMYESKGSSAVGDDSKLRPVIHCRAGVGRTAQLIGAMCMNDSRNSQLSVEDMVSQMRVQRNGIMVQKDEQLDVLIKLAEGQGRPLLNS

One may read the pIC50 as the negative decadic logarithm of the IC50, by convention in mol/L.

pIC50: −log10 of the molar value. Some results are limits rather than exact numbers.

Turning to `O=C(Nc1ccc(OCc2ccccc2)c(Cl)c1)C(=O)Nc1ccccc1NC(=O)[C@H](c1ccccc1)S(=O)(=O)O` [8k], the pIC50 is < 4.30.

Source of the values: PMC12831972 (2025).
